Pooled drug test results. Numbers come from NIAID ChemDB, via PubChem.

Common to all: tests in culture; organism: HIV-2; cell line: CEM + CEM-SS; endpoint: EC50

Lines come from different laboratories, so protocols vary. An empty or dashed field is not shown. ECn is the concentration giving n% inhibition of infection, replication or growth.

structure | strain or isolate | read by | result
Nc1ccn([C@H]2CC[C@@H](CO)O2)c(=O)n1 | ROD | cytopathic effect / XTT | >0.03 µM
C/C=C/CSc1cc(NC(=S)c2ccsc2C)ccc1Cl | ROD | p24 | >2 µM
COc1c(Cl)cc(C(=CCCCCN[C@H]2CC[C@]3(C)C4CC[C@@]5(C)C(CC[C@@H]5C(C)CCCC(C)C)C4CC[C@H]3C2)c2cc(Cl)c(OC)c(C(=O)O)c2)cc1C(=O)O | ROD | cytopathic effect / MTT | >150 µM
Cc1cc(C)cc(C(=O)c2c(C(C)C)c(=O)[nH]c(=O)n2CC2=CCCC2)c1 | ROD | cytopathic effect / XTT | 0.1 µM
CSC1=NS(=O)(=O)N([C@@H]2O[C@H](COC(C)=O)[C@@H](OC(C)=O)[C@H](OC(C)=O)[C@H]2OC(C)=O)C(=O)N1 | ROD | syncytia | >200 µg/mL
CC1=CC=CN(C)C1SCc1cc(C)ccc1C | ROD | syncytia | >4 µg/mL
CC(C)C(CCOS(=O)(=O)O)CC[C@@H](C)[C@H]1[C@@H](O)[C@H](O)[C@@H]2[C@]1(C)CC[C@H]1[C@@]2(O)C[C@@H](O)[C@@]2(O)C[C@@H](O)CC[C@]12C | CLB20 | cytopathic effect / XTT | >100 µM
NS(=O)(=O)c1ccc(NC(=O)c2ccccc2SSc2ccccc2C(=O)Nc2ccc(S(N)(=O)=O)cc2)cc1 | ROD | cytopathic effect / XTT | 1.6 µM
O=C(OC1[C@H](OC(=O)c2cc(O)c(O)c(O)c2)CC(OC(=O)c2cc(O)c(O)c(O)c2)(C(=O)O)C[C@H]1OC(=O)c1cc(O)c(O)c(O)c1)c1cc(O)c(O)c(O)c1 | ROD | XTT | ~10 µM
COc1c(Cl)cc(C(=CCNC(=O)C[C@H]2CC[C@]3(C)C4CC[C@@]5(C)C(CC[C@@H]5CC(=O)NCC=C(c5cc(Cl)c(OC)c(C(=O)O)c5)c5cc(Cl)c(OC)c(C(=O)O)c5)C4CC[C@H]3C2)c2cc(Cl)c(OC)c(C(=O)O)c2)cc1C(=O)O | ROD | cytopathic effect / MTT | 70 µM
O=C1c2ccccc2N(CC2CCCCC2)S(=O)(=O)N1Cc1ccccc1 | ROD | p24 | >10 µM
COc1cc(-c2ccc(N=Nc3ccc4c(S(=O)(=O)O)cc(S(=O)(=O)O)c(N)c4c3O)c(OC)c2)ccc1N=Nc1ccc2c(S(=O)(=O)O)cc(S(=O)(=O)O)c(N)c2c1O | ROD | cytopathic effect / XTT | 1.8 µM
COc1c(Cl)cc(C(=CCCCCN[C@@H]2CC[C@]3(C)C4CC[C@@]5(C)C(CC[C@@H]5C(C)CCCC(C)C)C4CC[C@H]3C2)c2cc(Cl)c(OC)c(C(=O)O)c2)cc1C(=O)O | ROD | cytopathic effect / MTT | >150 µM
Cc1cc(C)cc(C(=O)c2c(C(C)C)c(=O)[nH]c(=O)n2CC2CC=CC2)c1 | ROD | cytopathic effect / XTT | 0.16 µM
C[C@]12CCC3C(CC[C@H]4C[C@@H](CCC=C(c5cc(Cl)c(O)c(C(=O)O)c5)c5cc(Cl)c(O)c(C(=O)O)c5)CC[C@]34C)C1CC[C@@H]2CCC=C(c1cc(Cl)c(O)c(C(=O)O)c1)c1cc(Cl)c(O)c(C(=O)O)c1 | ROD | cytopathic effect / MTT | 74 µM
Nc1ccn([C@H]2CC[C@@H](CO)O2)c(=O)n1 | ROD |  | 0.0621 µM
CC(C)[C@H](CC[C@@H](C)[C@H]1C[C@H](OS(=O)(=O)O)[C@H]2[C@@H]3C[C@H](O)[C@H]4C[C@@H](O)CC[C@]4(C)[C@H]3CC[C@@]21C)OC1OC[C@@H](O)[C@H](O)[C@@H]1O | CLB20 | cytopathic effect / XTT | >100 µM
O=S(=O)(Cc1ccc(CS(O)(O)c2ccc[n+]([O-])c2)cc1)c1cccc[n+]1[O-] | ROD | syncytia | ≥20 µg/mL
Cn1cc(NC(=O)Nc2cc(C(=O)Nc3cc(C(=O)Nc4ccc(P(=O)(O)O)c5cc(P(=O)(O)O)ccc45)n(C)c3)n(C)c2)cc1C(=O)Nc1cc(C(=O)Nc2ccc(P(=O)(O)O)c3cc(P(=O)(O)O)ccc23)n(C)c1 | ROD | cytopathic effect / XTT | >200 µM
COc1cc(C)cc2c(-c3c(O)cc(O)c4c3C[C@H](C)N[C@H]4C)cc(-c3cc(-c4c(O)cc(O)c5c4C[C@H](C)N[C@H]5C)c4cc(C)cc(OC)c4c3O)c(O)c12 | NIH-DZ | cytopathic effect / XTT | 25 µM
CCCCCCCCCCCCCCCC(=O)Nc1ccn([C@H]2CC[C@@H](COP(=O)(O)O[C@H]3C[C@H](n4cc(C)c(=O)[nH]c4=O)O[C@@H]3CO)O2)c(=O)n1 | ROD | cytopathic effect / XTT | 0.0568 µM
CC(C)[C@H](CC[C@@H](C)[C@H]1C[C@H](OS(=O)(=O)O)[C@H]2[C@@H]3[C@H](O)[C@H](O)[C@H]4C[C@@H](O)CC[C@]4(C)[C@H]3CC[C@@]21C)OC1OC[C@@H](O)[C@H](O)[C@@H]1O | CLB20 | cytopathic effect / XTT | >100 µM
O=C1c2ccccc2N(Cc2ccccc2-c2ccccc2)S(=O)(=O)N1Cc1ccccc1 | ROD | p24 | 18 µM
CSC1=NS(=O)(=O)N([C@@H]2O[C@H](COC(=O)c3ccccc3)[C@@H](OC(=O)c3ccccc3)[C@H]2OC(=O)c2ccccc2)C(=O)N1 | ROD | syncytia | >40 µg/mL
N#C/C(=C\c1ccccc1)Sc1ccccc1O | ROD | syncytia | >4 µg/mL
CC#CCN1c2ccccc2C(=O)N(Cc2ccccc2)S1(=O)=O | ROD | p24 | >10 µM

Repeating the final 3 entries:

structure | strain or isolate | read by | result
CSC1=NS(=O)(=O)N([C@@H]2O[C@H](COC(=O)c3ccccc3)[C@@H](OC(=O)c3ccccc3)[C@H]2OC(=O)c2ccccc2)C(=O)N1 | ROD | syncytia | >40 µg/mL
N#C/C(=C\c1ccccc1)Sc1ccccc1O | ROD | syncytia | >4 µg/mL
CC#CCN1c2ccccc2C(=O)N(Cc2ccccc2)S1(=O)=O | ROD | p24 | >10 µM